Data source: PubChem BioAssay AID624099 (ICCB-Longwood, 2012)

Test: 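Host factors E2 relies on to silence an HPV18 LCR reporter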 (primary screen)
Cells: human C33A cervical carcinoma cells (HPV-negative) stably expressing BPV1 E2 and an HPV18 LCR luciferase reporter
Reagent: siRNA pool against human genes, 40 nM
Time to read-out: 72 h
Read-out: 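HPV18 LCR reporter light per well, converted to plate-wise z-scores that exclude control wells, and averaged over triplicate plates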
Direction: mean z-score and z-score: higher = stronger reporter signal, weaker E2 silencing
Hit rule: 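Mean z ≥ 2 together with z ≥ 2 in two or more of the three replicates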
The whole screen tested about 21,000 reagents; shown is a part drawn at random. Over the whole deposit, 497 (2.4%) were called active. 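Higher z means weaker E2 silencing; only reporter increases were scored, and knock-downs that hurt cell survival may mask genuine repressor factors.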 Entries without a mark were called inactive. Reagents against one gene are numbered here.

target | reagent | mean z-score | z-score, replicate A | z-score, replicate B | z-score, replicate C
CXCL3 | 1 | 0.57 | 0.44 | 0.6 | 0.68
COMT | 1 | -1.91 | -1.3 | -2.34 | -2.09
SERTAD2 | 1 | -0.73 | -0.16 | -0.9 | -1.13
POU2F2 | 1 | -0.36 | -0.31 | -0.41 | -0.37
SRSF11 | 1 | -0.06 | -0.06 | -0.2 | 0.09
SLC4A2 | 1 | 1.05 | 0.92 | 0.94 | 1.28
C9orf43 | 1 | -0.89 | -0.51 | -1.04 | -1.11
ZNF486 | 1 | 0.29 | 0.18 | 0.33 | 0.36
SPDEF | 1 | -0.26 | 0.06 | -0.22 | -0.62
RTF1 | 1 | 1.13 | 0.73 | 1.15 | 1.51
HSPA12B | 1 | 0.47 | 0.36 | 0.7 | 0.34
LOC285721 (retired record) | 1 | 2.14 (active) | 2.29 | 2.18 | 1.95
SLC71A1 | 1 | 0.42 | 0.91 | 0.33 | 0.03
C8orf82 | 1 | 0.26 | -0.01 | 0.44 | 0.35
ZSCAN4 | 1 | -0.15 | -0.24 | -0.2 | -0.02
ETNK1 | 1 | -0.33 | -0.14 | -0.73 | -0.12
YPEL5 | 1 | 0.46 | 0.69 | 0.34 | 0.36
PHAX | 1 | -0.03 | 0.22 | -0.08 | -0.23
LOC285703 (retired record) | 1 | 0.54 | 0.79 | 0.35 | 0.47
MMP9 | 1 | -0.08 | 0.08 | -0.19 | -0.12
LOC402245 (retired record) | 1 | 0.14 | 0.01 | 0.23 | 0.18
LETM1 | 1 | 1.09 | 1.23 | 0.75 | 1.28
EML5 | 1 | -0.39 | -0.08 | -0.7 | -0.41

Targets above whose target name begins with S or s:
target | reagent | mean z-score | z-score, replicate A | z-score, replicate B | z-score, replicate C
SERTAD2 | 1 | -0.73 | -0.16 | -0.9 | -1.13
SRSF11 | 1 | -0.06 | -0.06 | -0.2 | 0.09
SLC4A2 | 1 | 1.05 | 0.92 | 0.94 | 1.28
SPDEF | 1 | -0.26 | 0.06 | -0.22 | -0.62
SLC71A1 | 1 | 0.42 | 0.91 | 0.33 | 0.03

Additional results:
target | reagent | mean z-score | z-score, replicate A | z-score, replicate B | z-score, replicate C
TBC1D9 | 1 | -0.43 | 0.11 | -0.77 | -0.62
OR4A16 | 1 | 1.2 | 1.34 | 0.89 | 1.38
SMCO4 | 1 | -0.37 | -0.34 | -0.47 | -0.29
ZNF613 | 1 | 0.76 | 1.33 | 1.19 | -0.25
VCAM1 | 1 | 0.79 | 0.4 | 0.92 | 1.06
RBP4 | 1 | -0.98 | -0.78 | -1.12 | -1.05
LOC389331 (retired record) | 1 | -0.19 | -0.49 | -0.09 | 0.02
TEAD1 | 1 | -1.28 | -1.16 | -1.33 | -1.34
DBNDD2 | 1 | 0.44 | 0.54 | 0.1 | 0.67
CUEDC2 | 1 | 0.32 | 0.26 | 0.2 | 0.5
LINC01061 | 1 | 1.28 | 1.43 | 0.69 | 1.72
ZNF833P | 1 | -0.06 | -0.02 | -0.03 | -0.12
DNAAF4 | 1 | 0.58 | 0.49 | 0.6 | 0.64
PPARA | 1 | 0.25 | 0.23 | 0.13 | 0.38
PPARA | 2 | -0.65 | -0.78 | -0.82 | -0.35
CHD3 | 1 | -0.18 | -0.23 | -0.11 | -0.21
ZNF844 | 1 | -0.27 | -0.19 | -0.21 | -0.43
GRIP2 | 1 | 0.56 | 0.36 | 0.46 | 0.86
CISH | 1 | 0.07 | 0.19 | 0.17 | -0.14
CDC37L1 | 1 | -0.62 | -0.88 | -0.61 | -0.37
IGSF5 | 1 | -0.1 | 0.78 | -2.01 | 0.92
UNC79 | 1 | 0.44 | 1.06 | 0.51 | -0.25
ADAMTS17 | 1 | -1.09 | -0.65 | -1.15 | -1.46
UBE2E3 | 1 | 0.42 | 0.5 | 0.25 | 0.52
DDB1 | 1 | 0.5 | 0.77 | 0.33 | 0.39
DPH5 | 1 | -0.26 | -0.22 | -0.34 | -0.21
HPS4 | 1 | 0.17 | 0.17 | 0.11 | 0.22
MYBBP1A | 1 | 0.77 | 0.71 | 0.74 | 0.86
OXCT2 | 1 | 1.41 | 0.77 | 1.55 | 1.93
ARHGAP17 | 1 | -0.96 | -1.14 | -1.12 | -0.61
OVOL2 | 1 | 1.47 | 1.23 | 1.53 | 1.66
S100A7A | 1 | -1.45 | -1.62 | -1.45 | -1.28
KCNT2 | 1 | 0.43 | 0.24 | 0.69 | 0.37
ZNF660 | 1 | -1.38 | -1.55 | -1.11 | -1.5
